Source: patent US20240366728A1 (Carmot Therapeutics Inc., priority 2023, published 2024)

Test: general procedure: Fmoc solid-phase peptide synthesis; Rink Amide ProTide Resin (LL) or preloaded Wang (LL) resin; DIC/Oxyma
Details: whole synthesis, scale 0.15 mmol

## Exendin-Phe1 (FGEGTFTSDLSKQMEEEAVRLFIEWLLAGGPSSGAPPPS; C-terminal amide)
214 nm
  final HPLC purity: 96.0%
  isolated mass: 27.7 mg
